The text below walks through data of paper PMC10746170.

The data set concerns His6-GacA. The data set is described as follows: EMSA. As to conditions: 4-12 uM GacA, 20 mM acetyl phosphate, abolished by unlabeled DNA, 20 mM Tris pH 8.0, 150 mM NaCl, 10 mM EDTA, 100 ug/mL BSA, 10% glycerin, 1 mM DTT, ~10 nM probe, 20 min, room temperature, 6% native PAGE, recombinant protein, residues 1-211, protein details: His6, label: IR700 (5' end of forward primer), probe letters rebuilt from the primers and the genome. On the technique in general: A gel shift assay detects complexes by their altered migration in electrophoresis.

As to “AAAATCGCCTATTAAAAGTCTCTTTATGTAAATTTTGAATGAGCTTCATTTGTATAATCAATAATAATTCTCAAAAAAATTTTTCAAGCATAAATAATTGATTTTAAACAAAATAATTTAGATAAATAACATACATATAACATAAAAATATAAAAGCAAAAACCTTATAAAAACATATAAACATATGATTTTCATTAAAAAATAAAGAAAACTCCAAATATCTGCTAGTTAGTCTTTAGTCTTATTTTTTTTATGATTTTATGCTTTAATACAGCCACTTTTTTATTTGATCTTTCATTGTATCCCAATGAATGACTTGTACGTTGTACATATTTTGAATAGGCCTCACC (double strand) [pckG promoter probe]”, the binding result is “binds”.
